PubChem BioAssay AID1224833, University of Georgia | 2016

- Purpose: 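Human genes whose knock-down alters rotavirus replication in monkey cells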 (primary screen)
- Cell system: monkey MA104 kidney cells
- Reagent: siRNA pool against human genes, 50 nM
- Timing: 48 h knock-down before infection; read 24 h after infection
- Treatment: infection with rotavirus strain RV3 two days after transfection; infectious dose for this stage not given
- Detection: 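z-score of rotavirus antigen signal per well, from a fluorescent immunoassay, relative to non-targeting control wells on the same plate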
- Reading the numbers: z-score vs non-targeting control: higher = more rotavirus replication than with non-targeting control
- Call rule: In these data the active calls have z-score vs non-targeting control at about -1 or lower, or at about 1 or higher
- Meaning of the calls: active = z-score beyond 1 either way; inactive = z-score within 1 of zero
In all, the deposit lists about 12,000 reagents; below is a part drawn at random. About 5,600 of all reagents (46%) count as active. 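Active calls cover z-scores past 1 in both directions, so they include lowered as well as raised rotavirus replication.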 No sequences are given here.

| Target gene | PubChem SID | z-score vs non-targeting control | outcome |
| --- | --- | --- | --- |
| TBC1D31 (TBC1 domain family member 31) | SID329582118 | -0.387 | inactive |
| GLIPR2 (GLI pathogenesis related 2) | SID329583060 | -0.545 | inactive |
| VARS2 (valyl-tRNA synthetase 2, mitochondrial) | SID329580191 | 0.23 | inactive |
| PBLD (phenazine biosynthesis like protein domain containing) | SID329580551 | 0.506 | inactive |
| FTCD (formimidoyltransferase cyclodeaminase) | SID329577383 | -0.979 | inactive |
| HES2 (hes family bHLH transcription factor 2) | SID329579349 | -0.537 | inactive |
| HERC2P3 (HERC2 pseudogene 3) | SID329583853 | 1.16 | active |
| CA12 (carbonic anhydrase 12) | SID329572989 | -0.99 | inactive |
| SOX13 (SRY-box transcription factor 13) | SID329576670 | -0.0637 | inactive |
| TMEM208 (transmembrane protein 208) | SID329578659 | -0.366 | inactive |
| IQCE (IQ motif containing E) | SID329577921 | -1.87 | active |
| CDH2 (cadherin 2) | SID329573103 | -1.24 | active |
| DHFR2 (dihydrofolate reductase 2) | SID329583417 | 0.0387 | inactive |
| SLC7A3 | SID329581755 | -0.86 | inactive |
| PLEKHG7 (pleckstrin homology and RhoGEF domain containing G7) | SID329584567 | -1.95 | active |
| PRIM1 (DNA primase subunit 1) | SID329574940 | 1.01 | active |
| TPSAB1 (tryptase alpha/beta 1) | SID329575709 | -1.37 | active |
| DNASE1L3 (deoxyribonuclease 1L3) | SID329573423 | -2.02 | active |
| OR10A4 (olfactory receptor family 10 subfamily A member 4) | SID329583829 | -0.132 | inactive |
| AKAP19 (A-kinase anchoring protein 19) | SID329581576 | -1.47 | active |
| DEFB113 (defensin beta 113) | SID329583648 | -0.984 | inactive |
| ADCYAP1R1 (ADCYAP receptor type I) | SID329572692 | -1.18 | active |
| RPL36 (ribosomal protein L36) | SID329578199 | -2.79 | active |
| OSBP (oxysterol binding protein) | SID329574721 | -1.47 | active |
| DNAJC27 (DnaJ heat shock protein family (Hsp40) member C27) | SID329578996 | 0.808 | inactive |

10 successive reagents already listed, for reference:
| Target gene | PubChem SID | z-score vs non-targeting control | outcome |
| --- | --- | --- | --- |
| FTCD (formimidoyltransferase cyclodeaminase) | SID329577383 | -0.979 | inactive |
| HES2 (hes family bHLH transcription factor 2) | SID329579349 | -0.537 | inactive |
| HERC2P3 (HERC2 pseudogene 3) | SID329583853 | 1.16 | active |
| CA12 (carbonic anhydrase 12) | SID329572989 | -0.99 | inactive |
| SOX13 (SRY-box transcription factor 13) | SID329576670 | -0.0637 | inactive |
| TMEM208 (transmembrane protein 208) | SID329578659 | -0.366 | inactive |
| IQCE (IQ motif containing E) | SID329577921 | -1.87 | active |
| CDH2 (cadherin 2) | SID329573103 | -1.24 | active |
| DHFR2 (dihydrofolate reductase 2) | SID329583417 | 0.0387 | inactive |
| SLC7A3 | SID329581755 | -0.86 | inactive |

More reagents follow:
| Target gene | PubChem SID | z-score vs non-targeting control | outcome |
| --- | --- | --- | --- |
| ZC3H7A (zinc finger CCCH-type containing 7A) | SID329578641 | 0.634 | inactive |
| BORA (BORA aurora kinase A activator) | SID329581050 | -0.769 | inactive |
| SSR3 (signal sequence receptor subunit 3) | SID329575493 | 0.0472 | inactive |
| PNLDC1 (PARN like ribonuclease domain containing exonuclease 1) | SID329583103 | -1.88 | active |
| OR13D1 (olfactory receptor family 13 subfamily D member 1) | SID329583981 | -0.802 | inactive |
| PEX14 (peroxisomal biogenesis factor 14) | SID329574803 | 0.904 | inactive |
| C4BPA (complement component 4 binding protein alpha) | SID329572960 | 0.105 | inactive |
| CTF1 (cardiotrophin 1) | SID329573307 | -5.71 | active |
| NKAIN3 (sodium/potassium transporting ATPase interacting 3) | SID329583969 | -1.24 | active |
| MYH4 (myosin heavy chain 4) | SID329574522 | 0.555 | inactive |
| TMEM187 (transmembrane protein 187) | SID329576040 | -0.358 | inactive |
| IFNA16 (interferon alpha 16) | SID329574103 | -2.18 | active |
| DNAJC4 (DnaJ heat shock protein family (Hsp40) member C4) | SID329574067 | -1.71 | active |
| PLEKHG2 (pleckstrin homology and RhoGEF domain containing G2) | SID329580706 | -1.61 | active |
| ARHGEF15 (Rho guanine nucleotide exchange factor 15) | SID329577711 | -2.52 | active |
| STAM2 (signal transducing adaptor molecule 2) | SID329577059 | -0.79 | inactive |
| ZNF471 (zinc finger protein 471) | SID329580299 | 0.293 | inactive |
| ATP5MK (ATP synthase membrane subunit k) | SID329581736 | -0.768 | inactive |
| LPCAT2 (lysophosphatidylcholine acyltransferase 2) | SID329579482 | 0.702 | inactive |
| IRS1 (insulin receptor substrate 1) | SID329574183 | 1.39 | active |
| TNFRSF11A (TNF receptor superfamily member 11a) | SID329576289 | -1.21 | active |
| TACR1 (tachykinin receptor 1) | SID329575547 | -1.02 | active |
| AMDHD1 (amidohydrolase domain containing 1) | SID329582865 | -0.897 | inactive |
| CBLN2 (cerebellin 2 precursor) | SID329582934 | -1.25 | active |
| ELL (elongation factor for RNA polymerase II) | SID329576020 | -0.349 | inactive |
| ID4 (inhibitor of DNA binding 4) | SID329574083 | -1.92 | active |
| ATG4B (autophagy related 4B cysteine peptidase) | SID329577863 | -0.596 | inactive |
| GADD45B (growth arrest and DNA damage inducible beta) | SID329574519 | -1.85 | active |
| PLEKHG6 (pleckstrin homology and RhoGEF domain containing G6) | SID329579634 | 1.21 | active |
| DNM2 (dynamin 2) | SID329573428 | 1.69 | active |
| VCX3B (variable charge X-linked 3B) | SID329584552 | -1.78 | active |
| TBC1D3 (TBC1 domain family member 3) | SID329584740 | 0.74 | inactive |
| OLAH (oleoyl-ACP hydrolase) | SID329579685 | -0.98 | inactive |
| CFAP210 (cilia and flagella associated protein 210) | SID329582649 | -2.45 | active |
| FGL1 (fibrinogen like 1) | SID329573644 | -0.778 | inactive |
| SERINC4 (serine incorporator 4) | SID329584674 | 0.238 | inactive |
| TAS2R38 (taste 2 receptor member 38) | SID329575006 | -2.55 | active |
| ZNF362 (zinc finger protein 362) | SID329582987 | 1.53 | active |
| AP2B1 (adaptor related protein complex 2 subunit beta 1) | SID329572717 | -1.14 | active |
| POLQ (DNA polymerase theta) | SID329577331 | -1.47 | active |
| PIGT (phosphatidylinositol glycan anchor biosynthesis class T) | SID329579141 | -0.128 | inactive |
| GPRC5D (G protein-coupled receptor class C group 5 member D) | SID329579731 | -0.946 | inactive |
| SNRNP25 (small nuclear ribonucleoprotein U11/U12 subunit 25) | SID329580918 | -0.427 | inactive |
| LRRC46 (leucine rich repeat containing 46) | SID329581955 | 1.3 | active |
| KLHDC4 (kelch domain containing 4) | SID329579380 | 1.2 | active |
| AGXT2 (alanine--glyoxylate aminotransferase 2) | SID329580715 | -2.2 | active |
| OR5K3 (olfactory receptor family 5 subfamily K member 3) | SID329584521 | 0.177 | inactive |
| COLGALT2 (collagen beta(1-O)galactosyltransferase 2) | SID329577821 | 0.0454 | inactive |
| LY6G5B (lymphocyte antigen 6 family member G5B) | SID329580418 | 0.387 | inactive |
| ASMTL (acetylserotonin O-methyltransferase like) | SID329576198 | -0.676 | inactive |
